Measured values reported in patent US20260021071A1, “SMALL MOLECULE BROAD-SPECTRUM ANTIBIOTICS” (University of Florida Research Foundation, Incorporated, priority 2022, published 2026).

These compounds were tested on wild-type HepG2 cells (assay: HepG2 cytotoxicity assay (CellTiter-Glo, cellular ATP)). Settings: HepG2 cytotoxicity dose-response curve.

Structure (SMILES)	Hill Slope
Cc1ccc(Nc2nc3nonc3nc2NC(C)C)cc1C [Compound 4]	11.28
Cc1c(Nc2nc3nonc3nc2Nc2ccc(F)cc2)c(=O)n(-c2ccccc2)n1C [Compound 5]	11.29
N#Cc1cccc(NC(=O)Nc2cccc(Cl)c2)c1 [Compound 6]	14.00
N#Cc1ccc(NC(=O)Nc2cccc(Cl)c2)cc1 [Compound 7]	18.06
O=C(Nc1ccc([N+](=O)[O-])cc1)NC(C(F)(F)F)C(F)(F)F [Compound 8]	12.60
